Pooled drug test results. Numbers come from NIAID ChemDB, via PubChem.

Shared fields: growth or infection tests; species: Cytomegalovirus; read by: plaque count; read-out: EC50

An empty or dashed field is not shown.

| compound | strain or isolate | cell line | result |
|---|---|---|---|
| Cc1cc(N2CCCC2)c2ncc(CSCCc3ccccc3)n2c1 | AD169 |  | 20 µg/mL |
| O=c1c2ncn(COC(CO)CO)c2nc2[nH]c(-c3ccccc3)cn12 | AD169 | HEL | 20 µg/mL |
| O=C(CCCCCCCCC(=O)Nc1cc(S(=O)(=O)O)cc2cc(S(=O)(=O)O)cc(O)c12)Nc1cc(S(=O)(=O)O)cc2cc(S(=O)(=O)O)cc(O)c12 | AD169 | MRC-5 | 43 µM |
| CC(=O)OCCOCN1c2nc(Cc3ccccc3)[nH]c2C(N)=NS1(=O)=O | AD169 | HEL | >50 µg/mL |
| Nc1ncc2ncn(C[C@H]3CCC[C@H]3CO)c2n1 | DAVIS | HEL | >5 µg/mL |
| Nc1ncnc2c1ncn2C[C@H]1COP(=O)(O)CO1 | DAVIS | HEL | 0.15 µg/mL |
| CC1(C)[C@@H](CCO)C[C@H]1n1nnc2c(N)ncnc21 | DAVIS | HEL | >20 µg/mL |
| CC(C)C[C@H](NC(=O)n1nnc2ccccc21)C(=O)NCC1CCCCC1 | AD169 | HEL | >80 µg/mL |
| Cc1nc(N2CCC[C@H]2COC(C)C)nc(-n2ccnc2)c1[N+](=O)[O-] |  |  | <0.6 µM |
| CN1c2ccc([N+](=O)[O-])cc2C(C)(C)C12C=Cc1cc([N+](=O)[O-])ccc1O2 | AD169 | HEL | >8.7 µM |
| Nc1ncnc2c1ncn2C[C@@H](CO)OCP(=O)(O)O | DAVIS | HEL | 0.2 µg/mL |
| CCC(C)C1NC(=O)N(CC2CCCCC2)C1=O | DAVIS | HEL | 20 µg/mL |
| O=S(=O)(O)c1cc(O)c2c(NS(=O)(=O)c3ccc(-c4ccc(S(=O)(=O)Nc5cc(S(=O)(=O)O)cc6cc(S(=O)(=O)O)cc(O)c56)cc4)cc3)cc(S(=O)(=O)O)cc2c1 | AD169 | MRC-5 | 33 µM |
| CC(C)C[C@H](NC(=O)n1nnc2ccccc21)C(=O)NC(c1ccccc1)c1ccccc1 | DAVIS | HEL | >16 µg/mL |
| Nc1nc2c(ncn2COC2COP(=O)(O)OC2)c(=O)[nH]1 | AD169 | HEL | 0.8 µg/mL |
| O=C(NO)c1ccc(O)c(O)c1 |  |  | 20.7 µM |
| Nc1nc2c(ncn2COCCO)c(=O)[nH]1 | AD169 | HEL | 30 µg/mL |
| O=c1[nH]cnc2c1ncn2OCCOCP(=O)(O)O | AD169 | MRC-5 | >340 µg/mL |
| NC1=NS(=O)(=O)N(Cc2ccccc2)c2nc(Cc3ccccc3)[nH]c21 | AD169 | HEL | 9.2 µg/mL |
| Nc1ccn(C[C@@H](CO)OCP(=O)(O)O)c(=O)n1 | DAVIS |  | 0.1 µg/mL |
| Cc1cn([C@@H]2O[C@H](CO[Si](C)(C)C(C)(C)C)C3(O[C@H]3C(=O)NO)[C@H]2O[Si](C)(C)C(C)(C)C)c(=O)[nH]c1=O |  | MRC-5 | 4 µM |
| Nc1ccn(C[C@@H](CO)OCP(=O)(O)O)c(=O)n1 | DAVIS | HEL | 0.1 µg/mL |
| Nc1ncnc2c1ncn2OCCOCP(=O)(O)O | AD169 | MRC-5 | >350 µg/mL |
| CC1(C)[C@@H](CCO)C[C@H]1n1cnc2c(N)nc(N)nc21 | AD169 | HEL | >50 µg/mL |
| COc1ccc2c(c1)OC1(C=C2)N(C)c2ccccc2C1(C)C | AD169 | HEL | >10.4 µM |
| Cc1cn([C@@H]2O[C@H](CO)[C@@H](O)[C@@H]2F)c(=O)[nH]c1=O | DAVIS | HEL | 0.7 µg/mL |
| CC(C)Nc1nc2cc(Cl)c(Cl)cc2n1[C@H]1O[C@@H](CO)[C@H](O)[C@@H]1O | AD169 |  | 0.1 µM |
| Nc1nc2c(ncn2CC(CO)OCP(=O)(O)O)c(=O)[nH]1 | DAVIS | HEL | 0.2 µg/mL |
| CC(C)C[C@H](NC(=O)n1nnc2ccccc21)C(=O)NC1CCCCC1 | DAVIS | HEL | >16 µg/mL |
| COC(=O)[C@@H]1O[C@]12[C@@H](CO[Si](C)(C)C(C)(C)C)O[C@@H](n1ccc(=O)[nH]c1=O)[C@@H]2O[Si](C)(C)C(C)(C)C |  | MRC-5 | >20 µM |
| Nc1nc2c(ncn2COC(CO)CO)c(=O)[nH]1 | AD169 | HEL | 7.9 µM |
| Cc1nc(N[C@H]2CCOC[C@@H]2C)nc(-n2ccnc2)c1[N+](=O)[O-] |  |  | <0.6 µM |
| Nc1nc2c(ncn2COC(CO)CO)c(=O)[nH]1 | AD169 | HEL | 0.7 µg/mL |
| Nc1ccn(C[C@@H](CO)OCP(=O)(O)O)c(=O)n1 | AD169 | HEL | 2.7 µM |
| Nc1nc(N)c2ncn([C@H]3CCC[C@H]3CO)c2n1 | DAVIS | HEL | >50 µg/mL |
| CC(C)(C)[Si](C)(C)OC[C@H]1O[C@@H](n2ccc(=O)[nH]c2=O)[C@H](O[Si](C)(C)C(C)(C)C)[C@@]12O[C@H]2C(N)=O |  | MRC-5 | >8 µM |
| Nc1nc2c(ncn2OCCOCP(=O)(O)O)c(=O)[nH]1 | AD169 | MRC-5 | 0.07 µg/mL |
| Cc1ccc(C(=O)Nc2ccc(S(=O)(=O)O)c3cc(S(=O)(=O)O)cc(S(=O)(=O)O)c23)cc1NC(=O)c1cccc(NC(=O)Nc2cccc(C(=O)Nc3cc(C(=O)Nc4ccc(S(=O)(=O)O)c5cc(S(=O)(=O)O)cc(S(=O)(=O)O)c45)ccc3C)c2)c1 | Isolate T-156 | MRC-5 | 18 µM |
| CC1(C)[C@@H](CCO)C[C@H]1n1nnc2c(=O)[nH]c(N)nc21 | AD169 | HEL | >50 µg/mL |
| Nc1nc(=O)n([C@@H]2O[C@H](CO)[C@@H](O)[C@@H]2F)cc1I | AD169 | HEL | 0.8 µg/mL |
| Nc1nc2c(ncn2[C@H]2CCC[C@H]2CO)c(=O)[nH]1 | DAVIS | HEL | >50 µg/mL |
| COc1nc(N)nc2c1ncn2OCCOCP(=O)(O)O | AD169 | MRC-5 | <0.16 µg/mL |
| CC(C)(C)[Si](C)(C)OC[C@H]1O[C@@H](n2ccc(=O)[nH]c2=O)[C@H](O[Si](C)(C)C(C)(C)C)[C@@]12O[C@H]2C(=O)NO |  | MRC-5 | 24 µM |

ECn is the concentration giving n% inhibition of infection, replication or growth. Lines come from different laboratories, so protocols vary.